Pooled drug test results. Numbers come from NIAID ChemDB, via PubChem.

Shared fields: tests in culture; agent: Mycobacterium avium; measure: MIC

a–b is a range or a potency band.

compound | strain or isolate | value
O=C(O)c1cn(C2CC2)c2c(F)c(N3CCC(N4CCCC4)C3)c(F)cc2c1=O | PI2/6 | 1 µg/mL
Cc1c(CN2CCOCC2)c(CN2CCOCC2)c(C)n1Cc1ccccc1 | 103317 | >64 µg/mL
CC1CN(c2c(F)cc3c(=O)c(C(=O)O)cn(C4CC4)c3c2F)CC(C)N1 | TMC 1403 | ≤0.25 µg/mL
CC[C@H]1OC(=O)[C@H](C)[C@@H](O[C@H]2C[C@@](C)(OC)[C@@H](O)[C@H](C)O2)[C@H](C)[C@@H](O[C@@H]2O[C@H](C)C[C@H](N(C)C)[C@H]2O)[C@](C)(OC)C[C@@H](C)C(=O)[C@H](C)[C@@H](O)[C@]1(C)O | A5 | 0.13 µg/mL
NC1CCN(c2c(F)cc3c(=O)c(C(=O)O)cn(C4CC4)c3c2F)C1 | PI2/8 | 0.12 µg/mL
CC(C)(C)c1ccc(CNc2ccc(N3CCSCC3)cc2)cc1 | 103317 | 2 µg/mL
O=C(Nc1ccc(Cl)cc1)c1ccccc1O | MY330/88 | 31 µM
NC(=S)c1cc(SCc2ccncc2)ccn1 | MY330/88 | 62.5 µM
CC[C@H]1OC(=O)[C@H](C)[C@@H](O[C@H]2C[C@@](C)(OC)[C@@H](O)[C@H](C)O2)[C@H](C)[C@@H](O[C@@H]2O[C@H](C)C[C@H](N(C)C)[C@H]2O)[C@](C)(OC)C[C@@H](C)C(=O)[C@H](C)[C@@H](O)[C@]1(C)O | 1435 | 1 µg/mL
Cc1ccc(-n2c(=O)[nH]c3ccccc3c2=O)cc1 | MY330/88 | >500 µM
c1ccc2[nH]c(SCc3ccncc3)nc2c1 | MY330/88 | 500 µM
CCOc1c(N2CCC(C(C)(C)N)C2)c(F)cc2c(=O)c(C(=O)O)cn(C3CC3)c12 | PI4/44 | 0.5 µg/mL
Nc1ccccc1C(=O)Nc1ccccc1 | MY330/88 | 500 µM
c1cncc(CSc2nc3ccccc3o2)c1 | MY330/88 | 125 µM
O=C(O)c1cn(C2CC2)c2c(F)c(N3CCNCC3)c(F)cc2c1=O | TMC 1403 | ≤0.25 µg/mL
CCCC1=C(CCC)C(=O)c2ccccc2C1=O | MAC104 | 400 µg/mL
Cc1cc(CN2CCN(C)CC2)c(C)n1C1CCCCC1 | 103317 | >64 µg/mL
CC(C)(C)n1cc(C(=O)O)c(=O)c2cc(F)c(N3CCNCC3)nc21 | 1915112 | 4 µg/mL
Cc1c(CN2CCN(C)CC2)c(CN2CCN(C)CC2)c(C)n1C1CCCCC1 | 103317 | >64 µg/mL
CCNC(C)C1CCN(c2c(F)cc3c(=O)c(C(=O)O)cn(C4CC4)c3c2OC)C1 | PI2/8 | 0.12 µg/mL
C[C@](Cl)([C@@H](Br)/C=C/[C@](C)(Cl)CBr)[C@@H](Br)CCl | ATCC 25291 | >128 µg/mL
CC[C@H]1C[C@H]2C[C@H]3c4[nH]c5ccc(OC)cc5c4CCN(C2)[C@@H]13 | Isolate 733 HIV-positive | 100 µg/mL
CCC[C@@H](OC(C)=O)C1=C(Br)/C(=C/Br)OC1=O | ATCC 25291 | >128 µg/mL
O=C(O)c1cn(C2CC2)c2c(F)c(N3CCS(=O)(=O)CC3)c(F)cc2c1=O | TMC 1403 | ≤0.25 µg/mL
O=C1C=CC(=O)c2c(O)cccc21 | MAC104 | 12.5 µg/mL
O=c1oc2ccccc2c(=O)n1-c1ccc(F)cc1 | MY330/88 | 125 µM
CCc1cc(C(N)=S)ccn1 | 453 | >8 µg/mL
Cc1c(CN2CCSCC2)cc(-c2ccc(F)cc2)n1-c1ccc(F)cc1 | 103317 | 16 µg/mL
CC(C)=CCC[C@H](C)CCOCCCCCC(=O)O | - | 2000 µM
CCCCCCn1c(C)c(CN2CCOCC2)c(CN2CCOCC2)c1C | 103317 | >64 µg/mL
CO[C@H]1/C=C/O[C@@]2(C)Oc3c(C)c(O)c4c(O)c(c5c(c4c3C2=O)NC2(CCN(CC(C)C)CC2)N=5)=NC(=O)/C(C)=C\C=C\[C@H](C)[C@H](O)[C@@H](C)[C@@H](O)[C@@H](C)[C@H](OC(C)=O)[C@@H]1C | Isolate 90-0177 | 1 µg/mL
CC(N)C1CCN(c2nc3c(cc2F)c(=O)c(C(=O)O)cn3C2CC2)C1 | PI4/44 | 16 µg/mL
O=c1[nH]c2ccccc2c(=O)n1-c1ccc(Br)cc1 | MY330/88 | >250 µM
c1ccc2oc(SCc3ccncc3)nc2c1 | MY330/88 | 250 µM
CCn1cc(C(=O)O)c(=O)c2cc(F)c(N3CCC(CNCCO)C3)c(F)c21 | PI4/44 | 32 µg/mL
c1cc(CSc2ncn[nH]2)ccn1 | MY330/88 | 1000 µM
NCC[C@H](O)C(=O)N[C@@H]1C[C@H](N)[C@@H](O[C@H]2O[C@H](CN)[C@@H](O)[C@H](O)[C@H]2O)[C@H](O)[C@H]1O[C@H]1O[C@H](CO)[C@@H](O)[C@H](N)[C@H]1O | A5 | 2 µg/mL
Nc1ccccc1C(=O)Nc1ccc(Cl)c(Cl)c1 | MY330/88 | >62 µM
CCC(C(=O)O)c1ccccc1 | - | >2000 µM
CN[C@@H]1[C@H](O[C@H]2[C@H](O[C@H]3[C@H](O)[C@@H](O)[C@H](N=C(N)N)[C@@H](O)[C@@H]3N=C(N)N)O[C@@H](C)[C@]2(O)C=O)O[C@@H](CO)[C@H](O)[C@H]1O | 3090-C clarithromycin-resistant | 4 µg/mL
CC(C)CCC[C@H](C)CC(=O)O | - | >2000 µM
CC1(C)[C@@H](Br)CC[C@]2(C)O[C@H]3COC(=O)C3=CC[C@@H]12 | ATCC 25291 | >128 µg/mL
CC1CN(c2c(F)c(N)c3c(=O)c(C(=O)O)cn(C4CC4)c3c2F)CCN1C | PI2/8 | 0.06 µg/mL
O=C1C=CC(=O)C=C1 | MAC104 | 100 µg/mL
O=C(O)c1cn(C2CC2)c2c(F)c(N3CCN4CCC3C4)c(F)cc2c1=O | 1915112 | ≤4 µg/mL
CC[C@H]1C[C@@H]2CN3CCc4c([nH]c5ccc(OC)cc45)[C@](C(=O)OC)(C2)[C@H]13 | Isolate 733 HIV-positive | 50 µg/mL
O=C(O)c1cn(C2CC2)c2c(F)c(N3CCSCC3)c(F)cc2c1=O | 1915112 | 2–4 µg/mL
CCCCCCn1c(C)c(CN2CCOCC2)c(CN2CCOCC2)c1-c1ccc(Cl)cc1 | 103317 | >64 µg/mL
Cc1ccc(NC(=O)c2ccccc2N)cc1 | MY330/88 | >250 µM
CC(C)(O)[C@H](O)COc1c2occc2cc2ccc(=O)oc12 | Isolate 733 HIV-positive | 200 µg/mL
C[C@]1(/C=C/Cl)C[C@](Cl)(CBr)[C@@H](Br)C[C@H]1Cl | ATCC 25291 | 64 µg/mL
COC1=C(C)C(=O)c2cc(=O)n(C)cc2C1=O | - | 25 µg/mL
Cc1c(F)c(N2CCNC(C)C2)c(C(F)(F)F)c2c1c(=O)c(C(=O)O)cn2C1CC1 | 1915112 | 8 µg/mL
CCC1=C(CC)C(=O)c2ccccc2C1=O | MAC104 | 200 µg/mL
O=C(Nc1ccc(Cl)c(Cl)c1)c1ccccc1O | MY330/88 | 31 µM
CCCCCCn1c(C)c(CN2CCN(C)CC2)c(CN2CCN(C)CC2)c1C | 103317 | >64 µg/mL
NC1CCCCN(c2c(F)cc3c(=O)c(C(=O)O)cn(C4CC4)c3c2F)C1=O | PI2/8 | 0.25 µg/mL
NC(=S)c1cc(SCc2ccccn2)ccn1 | MY330/88 | 250 µM
C/C=C1/CN2[C@H]3C[C@@H]1[C@@H](CO)[C@@H]2Cc1c3[nH]c2ccc(OC)cc12 | Isolate 733 HIV-positive | >100 µg/mL

The last 5 rows once more:

O=C(Nc1ccc(Cl)c(Cl)c1)c1ccccc1O ; strain or isolate: MY330/88 ; value: 31 µM
CCCCCCn1c(C)c(CN2CCN(C)CC2)c(CN2CCN(C)CC2)c1C ; strain or isolate: 103317 ; value: >64 µg/mL
NC1CCCCN(c2c(F)cc3c(=O)c(C(=O)O)cn(C4CC4)c3c2F)C1=O ; strain or isolate: PI2/8 ; value: 0.25 µg/mL
NC(=S)c1cc(SCc2ccccn2)ccn1 ; strain or isolate: MY330/88 ; value: 250 µM
C/C=C1/CN2[C@H]3C[C@@H]1[C@@H](CO)[C@@H]2Cc1c3[nH]c2ccc(OC)cc12 ; strain or isolate: Isolate 733 HIV-positive ; value: >100 µg/mL

Rows are shuffled and stem from different studies. Blank or dashed fields: not listed here.